A mixed list of measured activities; the numbers were collected in NIAID ChemDB.

All rows: whole-cell or culture tests; agent: HIV-1; method: p24; measure: fold resistance

Blank or dashed fields: not listed here.

structure | cell line | mutations | strain or isolate | result
Nc1ncnc2c1ncn2CCOCP(=O)(O)O | MT-2 | RT-K65R | K65R(RT-K65R) | 0.4
CC(C)c1nc(CN(C)C(=O)N[C@H](C(=O)N[C@@H](Cc2ccccc2)C[C@H](O)[C@H](Cc2ccccc2)NC(=O)OCc2cncs2)C(C)C)cs1 | MT-4 | PR-D30N A71V | NL4-3 | 0.2
CC(C)(C)NC(=O)[C@@H]1C[C@@H]2CCCC[C@@H]2CN1C[C@@H](O)[C@H](Cc1ccccc1)NC(=O)[C@H](CC(N)=O)NC(=O)c1ccc2ccccc2n1 | MT-4 | PR-M46I L63P | NL4-3 | 1
CC(C)OC(=O)OCOP(=O)(CO[C@H](C)Cn1cnc2c(N)ncnc21)OCOC(=O)OC(C)C | MT-2 | RT-G48V L90M | Saquinavir-resistant (G48V L90M) | 0.474
Cc1cn([C@H]2C[C@H](N=[N+]=[N-])[C@@H](CO)O2)c(=O)[nH]c1=O | PBMC | RT-F77L | Recombinant | 0
Nc1ccn([C@H]2CC[C@@H](CO)O2)c(=O)n1 | MT-4 | RT-M184V | IIIB 3TC (RT-M184V) | 5.56
O=c1[nH]cnc2c1ncn2[C@@H]1O[C@H](CO)C[C@@H]1F | MT-2 | RT-P119S L214F | RT P119S L214F | 3.5
Nc1ccn([C@H]2CC[C@@H](CO)O2)c(=O)n1 | MT-2 | RT-T69G K103N) | RT-T69G K103N | 4.3
CCc1cc(NCc2nc3c(Cl)ccc(Cl)c3o2)c(=O)[nH]c1C | MT-4 | RT-K10D K103N | NL4-3 | >30
Cc1cn([C@H]2C=C[C@@H](CO)O2)c(=O)[nH]c1=O | MT-2 | RT-T69G | - | 6.3
O=c1[nH]cnc2c1ncn2[C@H]1CC[C@@H](CO)O1 | MT-2 | RT-P119S | P119S(RT-P119S) | 0.9
O=c1[nH]cnc2c1ncn2[C@H]1CC[C@@H](CO)O1 | PBMC | RT-V75I F77L Q151M | Recombinant | 1
CC(C)CN(C[C@@H](O)[C@H](Cc1ccccc1)NC(=O)[C@H](CC(N)=O)NC(=O)c1ccc2ccccc2n1)C(=O)NC(C)(C)C | MT-4 | PR-I84V | NL4-3 | 2
Nc1ncnc2c1ncn2[C@@H]1O[C@H](CO)C[C@@H]1F | MT-2 | RT-L214F | L214F(RT-L214F) | 0.9

Repeating the final 2 entries:

CC(C)CN(C[C@@H](O)[C@H](Cc1ccccc1)NC(=O)[C@H](CC(N)=O)NC(=O)c1ccc2ccccc2n1)C(=O)NC(C)(C)C ; cell line: MT-4 ; mutations: PR-I84V ; strain or isolate: NL4-3 ; result: 2
Nc1ncnc2c1ncn2[C@@H]1O[C@H](CO)C[C@@H]1F ; cell line: MT-2 ; mutations: RT-L214F ; strain or isolate: L214F(RT-L214F) ; result: 0.9

Neighbouring rows are from separate reports. Fold resistance has wild type as its base.